A mixed list of measured activities; the numbers were collected in NIAID ChemDB.

Common to all: whole-cell or culture tests; agent: HIV-2; endpoint: inhibition

Neighbouring rows are from separate reports. Inhibition is in % at the dose shown (toxicity tests: loss of growth or viability). An empty or dashed field is not shown.

structure | strain | cell line | method | tested at | result
CCOP(=O)(Cn1cc(-n2ccc(=O)[nH]c2=O)nn1)OCC | ROD | CEM | - | 100 µM | 0%
COc1cc(C)cc2c(-c3c(O)cc(O)c4c3C[C@H](C)N[C@H]4C)cc(-c3cc(-c4c(O)cc(O)c5c4C[C@H](C)N[C@H]5C)c4cc(C)cc(OC)c4c3O)c(O)c12 | NIH-DZ | MT-2 | cytopathic effect / XTT | 250 µM | 40%
CC(C)CN(C[C@@H](O)[C@H](Cc1ccccc1)NC(=O)O[C@H]1CO[C@H]2OCC[C@H]21)S(=O)(=O)c1ccc2nc(NC3CCN(C4CCCC4)CC3)sc2c1 | ROD | MT-4 | reporter gene | 0.0064 µM | 90%
CN1C2N=CN=C(N)C2=NC1c1cn(CP(=O)(O)O)nn1 | ROD | CEM | - | 100 µM | 0%
CCn1c(C)c(C(=O)OC)c(C(=O)OC)c1Cc1ccccc1 | ROD | CEM + CEM-SS | cytopathic effect / MTT | 10 µM | 0%
CC(C)[C@H](NC(=O)[C@H](Cc1ccccc1)C[C@H](O)[C@H](Cc1ccccc1)NC(=O)OC(C)(C)C)C(=O)N[C@@H](Cc1ccccc1)C(=O)N1CCOCC1 | ROD | PBL | RT activity | 1 µM | 74%
O=C(NCCc1ccccc1)Nc1nc2ccc(F)cc2s1 | - | MT-4 | RT activity | 0.1 µg/mL | 4%
COc1ncnc(NS(=O)(=O)c2ccc(N=C3C(=O)N(CN4CCCCC4)c4ccccc43)cc2)c1OC | ROD | MT-4 | cytopathic effect / MTT | 2 µg/mL | 13%
CC(C)CN(C[C@@H](O)[C@H](Cc1ccccc1)NC(=O)O[C@H]1CO[C@H]2OCC[C@H]21)S(=O)(=O)c1ccc2nc(NC3CCN(C4CCCC4)CC3)sc2c1 | ROD | MT-4 | reporter gene | 6.4 nM | 90%
COc1c(C)c2c(c(O)c1C/C=C(\C)CCC(=O)O)C(=O)OC2 | UC7 | PBL(CD4+) + PBL | RT activity | 1 µM | 80%
O=C(NCCc1ccccc1)Nc1nncs1 | - | MT-4 | RT activity | 1 µg/mL | 100%
CN1C2N=CN=C(N)C2=NC1c1cn(CCCP(=O)(O)O)nn1 | ROD | CEM | - | 100 µM | 0%
O=C(NCCc1ccccc1)Nc1nc(C(F)(F)F)cs1 | - | MT-4 | RT activity | 100 µg/mL | 96%
Nc1ccn([C@H]2CC[C@@H](CO)O2)c(=O)n1 | ROD | CEM + CEM-SS | cytopathic effect / XTT | 25 µM | 0.03%
CCOP(=O)(CC(O)n1cc(-n2c[n+](C)c(=O)[nH]c2=O)nn1)OCC | ROD | - | - | 100 µM | 0%
Cc1cc(C)c(S(=O)(=O)OCC2OC3OC4C(CO)OC(OC5C(CO)OC(OC6C(CO)OC(OC7C(CO)OC(OC8C(CO)OC(OC9C(C[n+]%10ccccc%10)OC(OC2C(O)C3O)C(O)C9O)C(O)C8O)C(O)C7O)C(O)C6O)C(O)C5O)C(O)C4O)c(C)c1 | GH-1 | MOLT-4 | syncytia | 64.4 µg/mL | 100%
C[n+]1cn(-c2cn(C(O)P(=O)(O)O)nn2)c(=O)[nH]c1=O | ROD | CEM | - | 100 µM | 0%
O=C(NCCc1ccccc1)Nc1nc2ccccc2s1 | - | MT-4 | cytopathic effect / XTT | 10 µg/mL | 100%
CCOP(=O)(CCn1cc(-n2c[n+](C)c(=O)[nH]c2=O)nn1)OCC | ROD | CEM | - | 100 µM | 0%
Cc1nc(NC(=O)NCCc2ccccc2)sc1C | - | MT-4 | RT activity | 10 µg/mL | 61%
CC(=O)NC1C=CN(c2cn(CCP(=O)(O)O)nn2)C(=O)N1 | ROD | CEM | - | 100 µM | 0%
CC(C)N(C[C@H](O)[C@H](Cc1ccccc1)NC(=O)C(CC(N)=O)NC(=O)C1C=Cc2ccccc2N1)NC(=O)OC(C)(C)C | ROD | MT-2 | cytopathic effect / RT activity | 0.03 µM | 90%

Again, the opening 3 rows:

structure,strain,cell line,method,tested at,result
CCOP(=O)(Cn1cc(-n2ccc(=O)[nH]c2=O)nn1)OCC,ROD,CEM,-,100 µM,0%
COc1cc(C)cc2c(-c3c(O)cc(O)c4c3C[C@H](C)N[C@H]4C)cc(-c3cc(-c4c(O)cc(O)c5c4C[C@H](C)N[C@H]5C)c4cc(C)cc(OC)c4c3O)c(O)c12,NIH-DZ,MT-2,cytopathic effect / XTT,250 µM,40%
CC(C)CN(C[C@@H](O)[C@H](Cc1ccccc1)NC(=O)O[C@H]1CO[C@H]2OCC[C@H]21)S(=O)(=O)c1ccc2nc(NC3CCN(C4CCCC4)CC3)sc2c1,ROD,MT-4,reporter gene,0.0064 µM,90%